Assay results published in patent US8877738B2, “Antipathogenic peptides” (priority 2009, dated 2014).

Key:
in vitro = settings: human, 293TT cells
Procedure: The 293TT cell line derived from human embryonal kidney cells transformed with the SV40 large T antigen was cultured in Dulbecco's modified Eagle's medium (DMEM) (Gibco/BRL, Gaithersburg, Md., USA) supplemented with heat-inactivated 10% bovine serum (Gibco/BRL), Glutamax-I (Invitrogen, Carlsbad, Calif., USA) and nonessential aminoacids. This cell line allows high levels of protein to be expressed from vectors containing the SV40 origin due to overreplication of the expression plasmid (Buck et al., 2004).
Cells were seeded at a density of 5×10^4/well in 24-well plates; the next day they were treated with serially diluted peptides to generate dose-response curves. Forty-eight or 72 h after treatment, cell viability was determined by the 3-(4,5-dimethylthiazol-2-yl)-2,5-diphenyltetrazolium bromide (MTT) method; 50% cytotoxic concentration (CC50) values were determined using Prism.

HIV-1IIIb = settings: C8166 cells, day 7 post-infection
From the text: FIG. 8: Quantitative real time RT-PCR analysis of HIV-1 RNA load in HIV-1 infected C8166 cell culture supernatants at day 7 post infection. […] The data are reported as means±SD of three independent experiments performed in duplicate.
FIG. 9: ELISA HIV-1 p24 protein analysis in HIV-1 infected C8166 cell culture supernatants at day 7 post infection. […] The data are reported as means±SD of three independent experiments performed in duplicate.
HIV-1 RNA viral load and HIV-1 gag p24 content were determined at day 7 post-infection in the culture supernatants in three independent experiments performed in duplicate. HIV-1 RNA was extracted by Roche high pure viral nucleic acid kit (Roche, Mannheim, Germany) from 200 μl of culture supernatants and then RNA load was assessed by quantitative real time RT-PCR as previously described (Gibellini et al., 2004). In parallel, HIV-1 gag p24 protein amount was determined by ELISA HIV-1 p24 antigen kit (Biomerieux Marcy L'Etoile, France).

C8166 cells = settings: uninfected C8166 cells, Trypan blue exclusion, day 7

CC[C@H](C)[C@H](NC(=O)[C@H](CCCNC(=N)N)NC(=O)[C@@H](NC(=O)[C@H](CCCNC(=N)N)NC(=O)[C@H](CC(C)C)NC(=O)[C@H](CO)NC(=O)[C@H](C)N)C(C)C)C(=O)N[C@@H](CCCCN)C(=O)N[C@@H](CCCCN)C(=O)NCCCC[C@H](NC(=O)[C@H](CCCCN)NC(=O)[C@H](CCCCN)NC(=O)[C@@H](NC(=O)[C@H](CCCNC(=N)N)NC(=O)[C@@H](NC(=O)[C@H](CCCNC(=N)N)NC(=O)[C@H](CC(C)C)NC(=O)[C@H](CO)NC(=O)[C@H](C)N)C(C)C)[C@@H](C)CC)C(=O)NCCCC[C@H](NC(=O)[C@H](CCCCNC(=O)[C@H](CCCCN)NC(=O)[C@H](CCCCN)NC(=O)[C@@H](NC(=O)[C@H](CCCNC(=N)N)NC(=O)[C@@H](NC(=O)[C@H](CCCNC(=N)N)NC(=O)[C@H](CC(C)C)NC(=O)[C@H](CO)NC(=O)[C@H](C)N)C(C)C)[C@@H](C)CC)NC(=O)[C@H](CCCCN)NC(=O)[C@H](CCCCN)NC(=O)[C@@H](NC(=O)[C@H](CCCNC(=N)N)NC(=O)[C@@H](NC(=O)[C@H](CCCNC(=N)N)NC(=O)[C@H](CC(C)C)NC(=O)[C@H](CO)NC(=O)[C@H](C)N)C(C)C)[C@@H](C)CC)C(=O)NCCC(N)=O [SB105-A10, (ASLRVRIKK)4-Lys2-Lys-β-Ala]
CC50 (in vitro): > 100 µg/mL | 50% inhibition of HIV-1IIIb replication (IC50) (HIV-1IIIb): 2.5 µg/mL | cell survival (C8166 cell viability) (C8166 cells): did not significantly affect
